Laboratory results published in article PMC8724787, “The epitope arrangement on flavivirus particles contributes to Mab C10’s extraordinary neutralization breadth across Zika and dengue viruses” (Cell, 2021).

Assays:
Experiment in all cases: cell-based or functional assay
[1] = target: ZIKV strain PF13 envelope (E) protein on virions (Zika virus, strain PF13, strain)
[2] = target: DENV1 strain Hawaii envelope (E) protein on virions (Dengue virus 1, strain Hawaii, UniProt A0A097PIH4, strain)
[3] = target: DENV2 strain 16681 envelope (E) protein on virions (Dengue virus 2, strain 16681, UniProt A0A173DS53, strain)
[4] = target: DENV3 strain H87 envelope (E) protein on virions (Dengue virus 3, strain H87, UniProt A0A0U2UQM7, strain)
[5] = target: DENV4 strain 1-0093 envelope (E) protein on virions (Dengue virus 4, strain 1-0093 …, UniProt Q80L01, strain)

B1: C10 intact bivalent IgG1 (human monoclonal antibody EDE1 C10) (antibody, V domains shown)
VH: EVQLVESGAEVKKPGASVKVSCKASGYTFTSYAMHWVRQAPGQRLEWMGWINAGNGNTKYSQKFQDRVTITRDTSASTAYMELSSLRSEDTAIYYCARDKVDDYGDYWFPTLWYFDYWGQGTLVTVSS
VL: QSALTQPASVSGSPGQSITISCTGTSSDVGGFNYVSWFQQHPGKAPKLMLYDVTSRPSGVSSRFSGSKSGNTASLTISGLQAEDEADYYCSSHTSRGTWVFGGGTKLTVL
B1 was tested, and the “neutralization of virus, FRNT on Vero cells: IC50 of bivalent C10” value (“neutralization of virus, FRNT” for short) [1] was less than 0.5 nM, the “neutralization of virus, FRNT” value [2] was 1 nM and the “neutralization of virus, FRNT” value [3] was less than 0.5 nM. The “neutralization of virus, FRNT” value [4] was 5 nM and the “neutralization of virus, FRNT” value [5] was less than 0.5 nM.

B2: C10 bivalent F(ab')2 (other, human)
VH: B1 VH
VL: B1 VL
B2 was tested, and the “neutralization of virus, FRNT” value [1] was less than 0.5 nM, the “neutralization of virus, FRNT” value [2] was 1 nM and the “neutralization of virus, FRNT” value [3] was less than 0.5 nM. The “neutralization of virus, FRNT” value [4] was 5 nM and the “neutralization of virus, FRNT” value [5] was less than 0.5 nM.
